PubChem BioAssay AID624099, ICCB-Longwood | 2012

- Test: 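Knock-downs relieving repression by E2 of an HPV18 LCR luciferase reporter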 (primary screen)
- Cell system: human C33A cervical carcinoma cells (HPV-negative) stably expressing BPV1 E2 and an HPV18 LCR luciferase reporter
- Knock-down reagent: siRNA pool against human genes, 40 nM
- Time to read-out: 72 h
- Measured: 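Per-well luciferase luminescence, z-scored on each plate against the plate mean and SD with control wells left out, then averaged across three replicate plates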
- Reading the numbers: mean z-score and z-score: higher = stronger reporter signal, weaker E2 silencing
- Active means: 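Mean z ≥ 2 together with z ≥ 2 in two or more of the three replicates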
This is a random part of about 21,000 deposited reagents. 497 of all reagents (2.4%) were called active. 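Higher z means weaker E2 silencing; only reporter increases were scored, and knock-downs that hurt cell survival may mask genuine repressor factors.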 No sequences are given here.

For ST20 (suppressor of tumorigenicity 20), the entry reads mean z-score -0.26; z-score, replicate A = -0.5; z-score, replicate B = -0.49; z-score, replicate C = 0.22; inactive.
With knock-down of LOC387706 (retired record) the results were mean z-score 0.29; z-score, replicate A = 0.72; z-score, replicate B = -0.17; z-score, replicate C = 0.34; inactive.
TUBB3 (tubulin beta 3 class III) gave mean z-score 0.06; z-score, replicate A = 0.11; z-score, replicate B = -0.03; z-score, replicate C = 0.1; inactive.
Silencing of KCNB2 (potassium voltage-gated channel subfamily B member 2) came out at: mean z-score 0.45; z-score, replicate A = 0.85; z-score, replicate B = 0.03; z-score, replicate C = 0.46; inactive.
LOC401460 (retired record) gave mean z-score -1.23; z-score, replicate A = -1.09; z-score, replicate B = -1.47; z-score, replicate C = -1.13; inactive.
Silencing of LTO1 (LTO1 maturation factor of ABCE1) resulted in: mean z-score -0.64; z-score, replicate A = -0.17; z-score, replicate B = -0.96; z-score, replicate C = -0.81; inactive.
ZNF311 (zinc finger protein 311) gave mean z-score 1.36; z-score, replicate B = 1.35; z-score, replicate C = 1.37; inactive.
Depletion of LOC391062 (retired record) resulted in: mean z-score -0.55; z-score, replicate A = -0.1; z-score, replicate B = -0.44; z-score, replicate C = -1.11; inactive.
Against MEST (mesoderm specific transcript) the deposit lists mean z-score 1.11; z-score, replicate A = 0.14; z-score, replicate B = 0.67; z-score, replicate C = 2.52; inactive.
With knock-down of DSCR9 (Down syndrome critical region 9), the record shows mean z-score 0.1; z-score, replicate A = 0.13; z-score, replicate B = 0.18; z-score, replicate C = -0.02; inactive.
Against CDH9 (cadherin 9), the values are mean z-score -0.21; z-score, replicate A = -0.72; z-score, replicate B = 0.33; z-score, replicate C = -0.25; inactive.
With knock-down of KIFC3 (kinesin family member C3), the screen gave mean z-score 1.13; z-score, replicate A = 1.07; z-score, replicate B = 0.91; z-score, replicate C = 1.41; inactive.
Against RWDD2B (RWD domain containing 2B) the deposit lists mean z-score 1.26; z-score, replicate A = 1.6; z-score, replicate B = 1.08; z-score, replicate C = 1.11; inactive.
With knock-down of PCAT4 (prostate cancer associated transcript 4), the screen gave mean z-score -0.05; z-score, replicate A = 0.28; z-score, replicate B = 0.02; z-score, replicate C = -0.45; inactive.
After knock-down of CDS2 (CDP-diacylglycerol synthase 2), the record shows mean z-score -1.1; z-score, replicate A = -1.09; z-score, replicate B = -0.91; z-score, replicate C = -1.29; inactive.
Depletion of LETR1 (lymphatic endothelial transcriptional regulator lncRNA 1) gave: mean z-score -0.7; z-score, replicate A = -0.34; z-score, replicate B = -0.96; z-score, replicate C = -0.79; inactive.
ATPAF2 (ATP synthase mitochondrial F1 complex assembly factor 2) gave mean z-score 0.04; z-score, replicate A = -0.03; z-score, replicate B = -0.03; z-score, replicate C = 0.18; inactive.
Against LINC02901 (long independently transcribed non-coding RNA 2901), the entry reads mean z-score -0.46; z-score, replicate A = -0.48; z-score, replicate B = -0.65; z-score, replicate C = -0.26; inactive.
RFX7 (regulatory factor X7) scored mean z-score -0.09; z-score, replicate A = 0.21; z-score, replicate B = -0.3; z-score, replicate C = -0.19; inactive.
After knock-down of XG (Xg glycoprotein (Xg blood group)) the results were mean z-score -0.14; z-score, replicate A = -0.1; z-score, replicate B = 0.18; z-score, replicate C = -0.51; inactive.
After knock-down of LOC389814 (retired record), the record shows mean z-score -0.38; z-score, replicate A = -0.5; z-score, replicate B = -0.53; z-score, replicate C = -0.11; inactive.

Part of the list above, set out differently.
target,mean z-score,"z-score, replicate A","z-score, replicate B","z-score, replicate C",Outcome
PCAT4 (prostate cancer associated transcript 4),-0.05,0.28,0.02,-0.45,inactive
CDS2 (CDP-diacylglycerol synthase 2),-1.1,-1.09,-0.91,-1.29,inactive
